Data from PMC7954794, “Protein context shapes the specificity of SH3 domain-mediated interactions in vivo” (Nature Communications, 2021).

B1: YGR229C (protein, UniProt P32566 1-505, looked up)
Cell wall assembly regulator …: MDLFKRKVKEWVYSLSTDDHYAEYNPDETPTFNMGKRLNSNNGQVNPSQMHLNSVDEEMSMGFQNGVPSNEDINIDEFTSTESNDGVSETLLAWRHIDFWTSEHNPDLNATLSDPCTQNDITHAEEDLEVSFPNPVKASFKIHDGQEDLESMTGTSGLFYGFQLMTLDQVVAMTQAWRNVAKNLNKRSQQGLSHVTSTGSSSSMERLNGNKFKLPNIPDQKSIPPNAVQPVYAHPAWIPLITDNAGNHIGVDLAPGPNGKYAQIITFGRDFDTKFVIAENWGEFLLSFANDLEAGNWYLVDDNDDYFSGDGELVFRDKKSNGPIQDYFEVLKRRTWIKYQENLRSQQQKSQPDTSLQEQKYVPASQKKVAAEQPSTLNAESIKGEDSGSADVQSVQDHESVKIVKTEPSEAETTTVNTESLGQAEHEIKADNVDIKQESERKEDEKQPKVEEKEHVENEHVTESAKKDDDVNKQTEEMNKKEENEIRSDDAKVEEAREEFENIAL
B2: YHR064C (protein, UniProt P38788 1-538, looked up)
Ribosome-associated complex …: MSSPVIGITFGNTSSSIAYINPKNDVDVIANPDGERAIPSALSYVGEDEYHGGQALQQLIRNPKNTIINFRDFIGLPFDKCDVSKCANGAPAVEVDGKVGFVISRGEGKEEKLTVDEVVSRHLNRLKLAAEDYIGSAVKEAVLTVPTNFSEEQKTALKASAAKIGLQIVQFINEPSAALLAHAEQFPFEKDVNVVVADFGGIRSDAAVIAVRNGIFTILATAHDLSLGGDNLDTELVEYFASEFQKKYQANPRKNARSLAKLKANSSITKKTLSNATSATISIDSLADGFDYHASINRMRYELVANKVFAQFSSFVDSVIAKAELDPLDIDAVLLTGGVSFTPKLTTNLEYTLPESVEILGPQNKNASNNPNELAASGAALQARLISDYDADELAEALQPVIVNTPHLKKPIGLIGAKGEFHPVLLAETSFPVQKKLTLKQAKGDFLIGVYEGDHHIEEKTLEPIPKEENAEEDDESEWSDDEPEVVREKLYTLGTKLMELGIKNANGVEIIFNINKDGALRVTARDLKTGNAVKGEL
B3: YNL243W (protein, UniProt P33338 1-968, looked up)
Protein SLA2: MSRIDSDLQKALKKACSVEETAPKRKHVRACIVYTWDHQSSKAVFTTLKTLPLANDEVQLFKMLIVLHKIIQEGHPSALAEAIRDRDWIRSLGRVHSGGSSYSKLIREYVRYLVLKLDFHAHHRGFNNGTFEYEEYVSLVSVSDPDEGYETILDLMSLQDSLDEFSQIIFASIQSERRNTECKISALIPLIAESYGIYKFITSMLRAMHRQLNDAEGDAALQPLKERYELQHARLFEFYADCSSVKYLTTLVTIPKLPVDAPDVFLINDVDESKEIKFKKREPSVTPARTPARTPTPTPPVVAEPAISPRPVSQRTTSTPTGYLQTMPTGATTGMMIPTATGAANAIFPQATAQMQPDFWANQQAQFANEQNRLEQERVQQLQQQQAQQELFQQQLQKAQQDMMNMQLQQQNQHQNDLIALTNQYEKDQALLQQYDQRVQQLESEITTMDSTASKQLANKDEQLTALQDQLDVWERKYESLAKLYSQLRQEHLNLLPRFKKLQLKVNSAQESIQKKEQLEHKLKQKDLQMAELVKDRDRARLELERSINNAEADSAAATAAAETMTQDKMNPILDAILESGINTIQESVYNLDSPLSWSGPLTPPTFLLSLLESTSENATEFATSFNNLIVDGLAHGDQTEVIHCVSDFSTSMATLVTNSKAYAVTTLPQEQSDQILTLVKRCAREAQYFFEDLMSENLNQVGDEEKTDIVINANVDMQEKLQELSLAIEPLLNIQSVKSNKETNPHSELVATADKIVKSSEHLRVDVPKPLLSLALMIIDAVVALVKAAIQCQNEIATTTSIPLNQFYLKNSRWTEGLISAAKAVAGATNVLITTASKLITSEDNENTSPEQFIVASKEVAASTIQLVAASRVKTSIHSKAQDKLEHCSKDVTDACRSLGNHVMGMIEDDHSTSQQQQPLDFTSEHTLKTAEMEQQVEILKLEQSLSNARKRLGEIRRHAYYNQDDD
B4: YPR055W (protein, UniProt P32855 1-1065, looked up)
Exocyst complex component SEC8: MDYLKPAQKGRRRGLSINSLSETQQSAMNSSLDHLQNDLNRINLQWNRILSDNTNPLELALAFLDDTSVGLGHRYEEFNQLKSQIGSHLQDVVNEHSQVFNTNVASYGKAVSSIMQAQEQTLNLKNCLKEANEKITTDKGSLQELNDNNLKYTKMIDVLVNIEELLQIPEKIEENIRKENFHQVQILLERGFILMNNKSLKTVEILKPINQQLELQEHLLFNNLIEEIHDIMYSKSNKTNFTRVTNNDIFKIISISHNGFTSLENYLYNIVNIDIMEHSKTINKNLEQFIHDQSLNKGNIMLQENAATQAPLAPSRNQENEGFNRIGFLLKTINNINKLPVAFNIITERAKEEIHNIIVKSTESIRSKHPSLLKMATSLKNDNHFGLPVQDILSIILRECFWEIFLKLLYAIQCHRAIFEMSNILQPTSSAKPAFKFNKIWGKLLDEIELLLVRYINDPELISSNNGSIKPINGATNNAPTLPKRKNPKIFSLEYNIEDNSSVKDQAFELKALLKDIFPGFSVSSNMDLDSIYVKDESFEQDEPLVPPSVFNMKVILDPFLLFTQSTSTIVPSVLTQNTISSLTFFDDYMNKSFLPKIQMTMDYLFTVEVESNNPYALELSDENHNIFKTALDFQRLFYNLLNVFNTANTFREKISYCILDLLNHFYNYYLGLFNSLIGTSDRHLTRKIITAWLQNGILMDQEQKILNGDETLFHEESIELFKEIPHFYQAGKGLSKSDLFNNLTLDTILQFSASVLWILNWLPGLKKAINIDEVSQEPMLDADRLRSSWTFSESMDLNYSNPSSSPNSLGNLKILLDDKASKKFDETIDGFKTLKFKLITILRFNIRALCIYDIGSFFQNTKIWNMDVGSIELDQNIASLISELRRTESKLKQQLPEKEKNSIFIGLDIVNNYALIKGAKSIKVLNHNGIKKMLRNVNVLQHAYRNLSSEPSKINMNVTMNFYSLCGSSEAELFEYIKDNELPHCSVEDLKTILRLQFSEEMHRQLKRQSTSSTKGSIKPSNKRYTEALEKLSNLEKEQSKEGARTKIGKLKSKLNAVHTANEK

These molecules were tested on BEM1-2 (assay: DHFR-PCA on solid medium, bait BEM1-2 (Fig. 1B)). Details: bait BEM1-2, label = prey.
Type: cell-based, Saccharomyces cerevisiae
Parameters: key: 0: SH3-independent; 1: SH3-dependent PPIs; 2: SH3-inhibited PPIs
Text: (§1) Supplement 41467_2021_21873_MOESM8_ESM.xlsx, sheet "Fig1B" | column: medsize; medrep; Ratio; Score

Molecule | Score
B1 | 0
B2 | 0
B3 | 1
B4 | 1

The molecules below were run on ABP1 (assay: DHFR-PCA on solid medium, bait ABP1 (Fig. 1B)). Details: bait ABP1, label = prey.
Type: cell-based, Saccharomyces cerevisiae
Parameters: key: 0: SH3-independent; 1: SH3-dependent PPIs; 2: SH3-inhibited PPIs
Text: as §1

Molecule | Score
B1 | 0
B2 | 0
B3 | 0
B4 | 1

These molecules were tested on BEM1-1 (assay: DHFR-PCA on solid medium, bait BEM1-1 (Fig. 1B)). Details: bait BEM1-1, label = prey.
Type: cell-based, Saccharomyces cerevisiae
Parameters: key: 0: SH3-independent; 1: SH3-dependent PPIs; 2: SH3-inhibited PPIs
Text: as §1

Molecule | Score
B1 | 1
B2 | 1
B3 | 1
B4 | 1

No dose or concentration is given here for some results.
